Laboratory results taken from patent US6911450B1, “Pyrimidine acyclonucleoside derivatives, preparation method and use thereof” (Universite de Geneve, priority 2001, dated 2005).

Test system: HIV-1 lai strain
Experiment: Anti-HIV test on PBMC, viral replication measured by Reverse Transcriptase (RT) activity in culture supernatants
Format: cell-based
Conditions: therapeutical index TI50=(CC50/IC50)
Protocol: The object of the screening is to evaluate the antiretroviral activity of the compounds of the present invention and of the Comparative Compounds on the HIV-1 lai strain cultivated on peripheral blood mononucleated cells (PBMC). For this purpose, the test compounds were incubated for seven days (duration of the anti-HIV test) with the PBMC in exponential phase of growth. The ability of the compounds to inhibit the viral replication was then measured in the culture supernatants either by an assay of the “Reverse Transcriptase” (RT) activity with the kit RetroSys TR (INNOVAGEN) or by an assay of the protein P24 with the kit Innotest HIV Antigen mAb Screening (IMMUNOGENETICS). The concentrations of the test compound causing 50 and 90% inhibition of the viral replication were determined. It concerns inhibition concentrations IC50 and IC90, respectively. The PBMC were isolated as described in Ulmer and col., Immunobiology, 166(3), 238-250 (1984) from a healthy donor by a Ficoll gradient (Nicomed Pharma AS). The PBMC were activated with phytohemagglutinine for three days and then cultivated in a 96-well plate, in a base medium (RPMI) supplemented with recombinant human Interleukin-2. Throughout the culture, the cells were maintained at 37° C., in an atmosphere saturated in humidity, and under 5% CO2. The PBMC were pre-treated for one hour in the presence of the test compounds at various concentrations, and then infected with 100 TCID50 of HIV-1-Lai [S. Wain-Hobson and col., Science 17, 252 (5008): 961-965 (1991)]. Three days after the infection with HIV-1, the half of the culture medium was changed and, at the day 7, the supernatants were taken and frozen at −20° C. Then, the viral replication was measured: a) by assaying the “Reverse Transcriptase” (RT) activity in the culture supernatants by means of the kit RetroSys (Innovagen). The RT contained in the supernatant synthesizes, in the presence of bromodeoxyuridine triphosphate (BrdUTP), a complementary strand DNA to a matrix immobilized on the bottom of the wells of a 96-well plate. The incorporation of BrdU is quantified by the fixation of an antibody anti-BrdU conjugated to the alkaline phosphatase. The activity of the attached alkaline phosphatase, measured by colorimetry, is proportional to the RT activity in the culture supernatant. The results described below are the results of at least two experiments which are distinct and carried out in triplicate.

SMILES | TI50
Cc1cc(C)cc(Cc2c(C(C)C)c(=O)[nH]c(=O)n2COCCCN(O)C(N)=O)c1 [Compound 3, 1-(3-N^1-hydroxyureidopropyloxymethyl)-6-(3,5-dimethylbenzyl)-5-isopropyluracil] | 7 × 10^9
CCc1c(Cc2ccccc2)n(COCCN(O)C(N)=O)c(=O)[nH]c1=O [Comparative 3, 1-(2-N^1-hydroxyureidoethyloxymethyl)-6-benzyl-5-ethyluracile] | >3.5 × 10^3
Cc1cc(C)cc(Cc2c(C(C)C)c(=O)[nH]c(=O)n2COCCCN(OC(=O)C(C)(C)C)C(N)=O)c1 [Compound 5, 1-(3-N^1-pivaloyloxyureidopropyloxymethyl)-6-(3,5-dimethylbenzyl)-5-isopropyluracil] | 6.5 × 10^10
CCOCn1c(Cc2ccccc2)c(C(C)C)c(=O)[nH]c1=O [Comparative 4, 1-ethyloxymethyl-6-benzyl-5-isopropyluracil, reference compound] | >1.5 × 10^4
CCc1c(Cc2cc(C)cc(C)c2)n(COCCCCN(O)C(N)=O)c(=O)[nH]c1=O [Comparative 2, 1-(4-N^1-hydroxyureidobutyloxymethyl)-6-(3,5-dimethylbenzyl)-5-ethyluracil] | >0.25 × 10^5
CC(=O)ON(CCCOCn1c(Cc2cc(C)cc(C)c2)c(C(C)C)c(=O)[nH]c1=O)C(N)=O [Compound 4, 1-(3-N^1-acetoxyureidopropyloxymethyl)-6-(3,5-dimethylbenzyl)-5-isopropyluracile] | 10^6
CCc1c(Cc2cc(C)cc(C)c2)n(COCCCNC(=O)NO)c(=O)[nH]c1=O [Compound 1, 1-(3-N^3-hydroxyureidopropyloxymethyl)-6-(3,5-dimethylbenzyl)-5-ethyl-uracil] | 1.13 × 10^5
CCc1c(Cc2cc(C)cc(C)c2)n(COCCN(O)C(N)=O)c(=O)[nH]c1=O [Comparative 1, 1-(2-N^1-hydroxyureidoethyloxymethyl)-6-(3,5-dimethylbenzyl)-5-ethyluracil] | >1.1 × 10^6
CCc1c(Cc2cc(C)cc(C)c2)n(COCCCN(O)C(N)=O)c(=O)[nH]c1=O [Compound 2, 1-(3-N1-hydroxyureidopropyloxymethyl)-6-(3,5-dimethylbenzyl)-5-ethyl-uracil] | >10^6
